From patent US9403763B2, “CD4-mimetic inhibitors of HIV-1 entry and methods of use thereof” (priority 2011, dated 2016)

What was measured:
HIV-1YU2 virus = assay: Single-round infection of Cf2Th-CD4/CCR5 cells by luciferase-expressing HIV-1YU2 virus; assay type: cell-based; conditions: background statement, virus not named
[1] = target: gp120 from the YU2 strain (Human immunodeficiency virus type 1 group M subtype B, UniProt P35961)

CN1C(C)(C)CC(NC(=O)C(=O)Nc2ccc(Cl)c(F)c2)CC1(C)C
IC50 (HIV-1YU2 virus): 89.9 µM | binding affinity compared to NBD-556 (1) [1]: ten-fold enhancement in binding affinity | change in heat capacity [1]: −738±36 cal/(K×mol) | enthalpy change ΔH [1]: -19.7 kcal/mol | entropy change ΔS [1]: −37 cal/(K×mol)
